# Screening data, single-dose tests

Measurements from “University of Dundee, Small-Polar-MMV Screening Library” (2021), ChEMBL document CHEMBL3988442.

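Whole-cell growth test on Mycobacterium tuberculosis, read after 4 days in a medium based on cholesterol and the lipid DPPC; the read-out is not stated. Compounds at 50 µM. The record gives no direction; compounds that gave an IC50 in retests scored well above the rest, so higher reads as more growth inhibition. Of about 69,000 compounds tested this way, about 370 (0.54%) reached 50% or more in at least one test.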

The filed quantity is “Percent Effect” (%). The record does not define 0% and 100%; most values in the screen are far below 50% and negative numbers occur (in some assays of this library far below -100). The entries come from a sample that favours strong results. Two or more numbers in one place are separate tests of the same structure; such repeats can differ widely.

Compound | effect
COC(=O)CNC(=O)c1scnc1C | -5.145%
Cc1noc(CN(C)CC2(O)CCCN(CCC3CCCCC3)C2=O)n1 (stereo not drawn) | 0.6647%
CCCc1cncnc1N1CCC(NCc2ccncc2)CC1 | -6.838%
CC(C)COc1cncc(N2CCCN(c3ncccn3)CC2)n1 | -4.793%
O=C(Nc1cccnc1N1CCSCC1)c1cc2c(s1)CCCCC2 | 1.704%
O=C1C(Nc2ncccn2)CCN1c1ccccc1OC(F)F (stereo not drawn) | 26%
CCc1nc(CN2CCCN(Cc3noc(C4CC4)n3)CC2)cs1 | 112.4% & -9.204%
c1ccc2nc(N3CCOC(Cn4cncn4)C3)cnc2c1 (stereo not drawn) | -9.851%
O=C(NCCN1CCOCC1)c1cc2c(s1)CCN2Cc1cccnc1 | -19.28%
CCCn1nnc(NCc2ccccc2OCc2ccc(Cl)cc2)n1 | 46.32%
O=C(CCC1CCCN(C(=O)CCc2ccc(F)c(F)c2)C1)NC1CC1 (stereo not drawn) | 9.46%
O=C(NCc1ccc(-n2cncn2)nc1)c1cc[nH]n1 | 5.68%
CCOC(=O)N1CCN(C(=O)C2CC(=O)N(c3ccccc3Br)C2)CC1 (stereo not drawn) | 55.4%
O=C(O)C(F)(F)F.O=C(O)C(F)(F)F.[H][C@@]12COC[C@H](C(=O)Nc3cccnc3)[C@]1([H])CN(C1CCCC1)C2 | 83.81% & -13.2%
CNc1c(NCc2ccco2)c(=O)c1=O | 16.4%
COC(=O)c1cccc(NCC(=O)NC(N)=O)c1 | -26.36%
CCc1nc(N)nc(NCCC(=O)N2CCCC2)c1C | 9.121%
CCCC(C)N(C)Cc1nnc(-c2ccc(Br)s2)o1 (stereo not drawn) | 54.19% & 42.92%
O=C(NCCNC(=O)c1ccc(Cl)cc1)NCCn1cccc1 | 14.96%
Cc1cc(C(=O)N2CCN(c3nc4c(C)cccc4s3)CC2)no1 | 13.75%
OCC1(Cc2ccccc2F)CCCN(c2ccc3ccccc3n2)C1 (stereo not drawn) | 3.021%
c1ccc2sc(CN3CCOC(Cn4cncn4)C3)nc2c1 (stereo not drawn) | 15.05%
CCC(O)CNc1ccc(-c2nc(CC(C)C)no2)cn1 (stereo not drawn) | 32.86%
CCn1c(SCC(N)=O)nnc1-c1csc2c1CCCC2 | -39.91%
CS(=O)(=O)Nc1ccn(Cc2ccc(F)cc2Cl)n1 | 16.48%
Cc1ccc(C)c(S(=O)(=O)NCCNc2ccc(-n3cccc3)nn2)c1 | 39.54%
O=C(O)C(F)(F)F.[H][C@@]12COC[C@@H](C(=O)Nc3cnccn3)[C@]1([H])CN(C1CCCC1)C2 | -12.28% & -1.61%
CCCc1nc(Nc2cccc(C(N)=O)c2)c2c(n1)c(C)nn2CC | 3.059%
Cl.NCC1CCCCN1C(=O)Cc1cccc(Cl)c1 (stereo not drawn) | 4.916%
CCc1nc(Cn2nc(COC)oc2=O)cs1 | 35.28%
Cc1cc(C2CCCN(CC(=O)Nc3nc4c(s3)CCC4)C2)n[nH]1 (stereo not drawn) | 51.91%
COC(=O)CSCc1noc(-c2ccc(C)cc2)n1 | 22.19%
Cc1cc(N(C)Cc2noc(C)n2)n2nc(C)c(C)c2n1 | -13.54%
CCc1nccn1CCNC1CCN(c2nc3ccc(Cl)cc3s2)CC1 | 66.07%
CC(C)N1CC2(CCCN(Cc3noc(C4CCCC4)n3)C2)CCC1=O (stereo not drawn) | 57.88% & 9.808%
COc1cccc2sc(N3CCN(C(=O)c4cc(C)on4)CC3)nc12 | -16.67%
O=C(Nc1ccc(-n2cccn2)cc1)N1CCC(O)C1 (stereo not drawn) | -21.81%
O=C(Cn1cccn1)NCC1(c2ccccc2)CC1 | -19.73%
O=C(NCCc1c[nH]c2ccc(F)cc12)C1(n2cnnn2)CCCCC1 | 48.06%
CCSc1ncc(CN2CCN(c3ccc(C#N)cc3)C(=O)C2)cn1 | -3.329%
Cc1nc(N)ncc1C(=O)N1CCCC(CCc2ccc(F)cc2)C1 (stereo not drawn) | 7.266%
[H][C@@]12C[C@@H](OC)C[C@]1([H])CN(C(=O)Cc1ccc(C)s1)C2 | 33.25% & 43.65%
COc1coc(CN2CCCC(CCc3c(F)cccc3F)C2)cc1=O (stereo not drawn) | 49.84%
COc1ccccc1OC1CN(C(=O)c2ccc(C(C)=O)s2)C1 | 2.841%
Cc1nccn1CCCn1cncc1-c1ccc2c(c1)CC(C)N2C.Cl (stereo not drawn) | 11.78% & 20.87%
FC(F)(F)c1ccnc(N2CCC(c3nccn3CC3CC3)CC2)n1 | 55.96%
N[C@@H]1CCC[C@@H](Oc2ccc(F)cc2Oc2ccccc2)[C@@H]1O | -2.167%
COc1ncc(CN2CCOC(Cc3cccc4ccccc34)C2)cn1 (stereo not drawn) | -25.26% & 58.78%
CCCNc1ccc(C(=O)NCCc2ccc(Cl)cc2)cn1 | 5.471%
O=C(O)C(F)(F)F.c1cnc(N2CC[C@@H](OCC3CC3)[C@@H]2Cc2cccnc2)nc1 | 51.57%
O=C(c1[nH]nc(C2CC2)c1Cl)N1CCCC1 | 75.84%
O=C(Cn1nnn(-c2cccs2)c1=O)NCC1CCOC1 (stereo not drawn) | -14.94%
O=C(O)c1ccc(N2CCC(Oc3ccc(Cl)cc3)CC2)nc1 | 4.26%
O=C(Cc1ccc2c(c1)OCCO2)N1CCCC(n2ccnc2)C1 (stereo not drawn) | 76.43%
COc1cccc(CNCCNS(=O)(=O)Cc2ccccc2)c1 | -3.379%

Once more, the final 4:

Compound	effect
O=C(Cn1nnn(-c2cccs2)c1=O)NCC1CCOC1 (stereo not drawn)	-14.94%
O=C(O)c1ccc(N2CCC(Oc3ccc(Cl)cc3)CC2)nc1	4.26%
O=C(Cc1ccc2c(c1)OCCO2)N1CCCC(n2ccnc2)C1 (stereo not drawn)	76.43%
COc1cccc(CNCCNS(=O)(=O)Cc2ccccc2)c1	-3.379%